Compound potency records, mixed from different reports. Data source: NIAID ChemDB in PubChem.

Shared fields: whole-cell or culture tests; species: Cryptococcus neoformans

Blank or dashed fields: not listed here.

compound | strain | method | measure | dose | value
C[C@@H]1CC[C@@]2(OC1)O[C@H]1C[C@H]3[C@@H]4CC=C5C[C@@H](O)[C@H](O)[C@@H](O[C@@H]6OC[C@@H](O)[C@H](O)[C@H]6O)[C@]5(C)[C@H]4CC[C@]3(C)[C@@]1(O)[C@@H]2C | - | - | MFC | - | ≥20 µg/mL
C1CCC([C@H]2CN=C3N2C[C@@H](C2CCCCC2)N3CCC23CC4CC(CC(C4)C2)C3)CC1 | ATCC 32045 | - | EC50 | - | 2.5 µg/mL
C[C@@H](c1ncncc1F)[C@](O)(Cn1cncn1)c1ccc(F)cc1F | - | - | MIC90 | - | 4 µg/mL
COC(=O)Nc1nc2ccc(C(=O)c3cccs3)cc2[nH]1 | ATCC 14116 | - | EC50 | - | 0.2 µg/mL
Nc1ccc(S(=O)(=O)c2ccc(N)cc2)cc1 | - | - | MIC50 | - | 0.008–8 µg/mL
O=C(O)c1cc(O)c(O)c(O)c1 | ATCC 208821 | broth dilution | MLC | - | 200 µg/mL
C=C(CCC1(OC)O[C@H]2C[C@H]3[C@@H]4CC=C5C[C@@H](O)[C@H](O)[C@@H](O[C@@H]6OC[C@@H](O)[C@H](O)[C@H]6O)[C@]5(C)[C@H]4CC[C@]3(C)[C@H]2[C@@H]1C)CO[C@@H]1O[C@H](CO)[C@@H](O)[C@H](O)[C@H]1O | - | - | MFC | - | ≥20 µg/mL
CCCCCCCCCCCCN[C@H]1CCc2cc(OC)c(OC)cc2C1 | - | - | MIC80 | - | 1 µg/mL
Cc1nn([C@H](C)[C@](O)(Cn2cncn2)c2ccc(F)cc2F)c2ccc(F)cc12 | ATCC 4065 | - | MIC90 | - | 1 µg/mL
CCCCCCCCCN1CCc2cc(O)c(O)cc2C1 | - | - | MIC80 | - | 16 µg/mL
c1ccc2[nH]cnc2c1 | ATCC 14116 | - | EC50 | - | <4 µg/mL
CC1=CC(=O)c2c(O)cccc2C1=O | - | - | MFC | - | 40 µg/mL
CC(C)(C)C1CCC(CN2C3=NC[C@@H](C4CCCCC4)N3C[C@H]2C2CCCCC2)CC1 | ATCC 32045 | - | EC50 | - | 3.6 µg/mL
CCCCCCCCCN[C@@H]1CCc2cc(OC)c(OC)cc2C1 | - | - | MIC80 | - | 4 µg/mL
N=C(N)c1ccc2c(c1)[nH]c1cc(C(=N)N)ccc12 | H99 | - | MFC | - | 50 µg/mL
CCc1nc(N)nc(N)c1-c1ccc(Cl)cc1 | - | - | MIC50 | - | 0.002–2 µg/mL
CCCCCOc1ccc(-c2ccc(-c3ccc(C(=O)N[C@H]4C[C@@H](O)[C@@H](O)NC(=O)[C@@H]5[C@@H](O)[C@@H](C)CN5C(=O)[C@H]([C@H](C)O)NC(=O)[C@H]([C@H](O)[C@@H](O)c5ccc(O)cc5)NC(=O)[C@@H]5C[C@@H](O)CN5C(=O)[C@H]([C@H](C)O)NC4=O)cc3)cc2)cc1 | - | - | MIC50 | - | >8 µg/mL
C[C@@H]1CC[C@@]2(OC1)O[C@H]1C[C@H]3[C@@H]4CC=C5C[C@@H](O)[C@H](O)[C@@H](O[C@@H]6OC[C@@H](O)[C@H](O)[C@H]6O[C@@H]6O[C@@H](C)[C@H](O)[C@@H](O)[C@H]6O)[C@]5(C)[C@H]4CC[C@]3(C)[C@H]1[C@@H]2C | - | - | MFC | - | ≥20 µg/mL
C[C@@H](c1ncncc1F)[C@](O)(Cn1cncn1)c1ccc(F)cc1F | - | - | MIC90 | - | 0.06–0.25 µg/mL
Cc1cc(NS(=O)(=O)c2ccc(N)cc2)no1 | - | - | MIC50 | - | 80 µg/mL
CCN1C2=NC[C@H](C3CCCCC3)N2C[C@@H]1Cc1ccccc1 | ATCC 32045 | - | EC50 | - | 72.2 µg/mL
COC(=O)c1cc(O)c(O)c(O)c1 | ATCC 208821 | broth dilution | MLC | - | >200 µg/mL
CN(C/C=C/C#CC(C)(C)C)Cc1cccc2ccccc12 | - | - | MIC90 | - | 1 µg/mL
CC(C)(C)C1CCC(CN2C3=NC[C@@H](C4CCCCC4)N3C[C@H]2CC2CCCCC2)CC1 | ATCC 32045 | - | EC50 | - | 4.7 µg/mL
C[C@@H]1C=C2C3CCC4[C@@]5(C)CC[C@@H](O)C(C)(C)C5CC[C@@]4(C)[C@]3(C)CC[C@@]2(C(=O)O)CC1 | ATCC 208821 | broth dilution | MLC | - | >200 µg/mL
COC(=O)Nc1nc2ccccc2[nH]1 | IU8698 | - | EC90 | - | 2 µg/mL
C=C1CO[C@@]2(O[C@H]3C[C@H]4[C@@H]5CC=C6C[C@@H](O)[C@H](O)[C@@H](O[C@@H]7O[C@H](CO)[C@H](O)[C@H](O)[C@H]7O)[C@]6(C)[C@H]5CC[C@]4(C)[C@H]3[C@@H]2C)[C@@H](O)C1 | - | - | MFC | - | ≥20 µg/mL
CCCCCCCCCCCCN1CCc2cc(O)c(O)cc2C1 | - | - | MIC80 | - | 16 µg/mL
c1ccc2c(c1)-c1nccc3ccnc-2c13 | ATCC52627 | - | inhibition | 50 µg/mL | 80%
Cc1ncc([N+](=O)[O-])n1CCO | - | - | MIC50 | - | 0.12–128 µg/mL
CC/C=C/C(CC)CCC[C@@]1(CC)C[C@H](CC)[C@H](CC(=O)O)OO1 | - | - | EC50 | - | 2.5 µg/mL
CC(C)(C)C1CCC(CN2C3=NC[C@@H](CC4CCCCC4)N3C[C@@H]2C2CCCCC2)CC1 | ATCC 32045 | - | EC50 | - | 2.1 µg/mL
CCN(CC)CCCC(C)Nc1c2ccc(Cl)cc2nc2ccc(OC)cc12 | - | - | MIC50 | - | 0.21–16 µg/mL
CCc1nn([C@H](C)[C@](O)(Cn2cncn2)c2ccc(F)cc2F)c2ccc(F)cc12 | ATCC 4065 | - | MIC90 | - | 0.25 µg/mL
C[C@@H](c1nc(-c2ccc(C#N)cc2)cs1)[C@](O)(Cn1cncn1)c1cc(F)ccc1F | - | - | MIC50 | - | 0.004–0.03 µg/mL
O=C1N2C3C(=COC=CC3O)CC23SSC12CC1=COC=CC(O)C1N2C3=O | E138 | - | EC50 | - | 1 µg/mL
O[C@](Cn1cncn1)(Cn1cnc(/C=C/c2ccc(OCC(F)(F)C(F)F)cc2)n1)c1ccc(F)cc1F | 10 strains | - | Mean MIC80 | - | 0.0075 µg/mL
CCN1C2=NC[C@H](Cc3ccccc3)N2C[C@H]1CC1CCCCC1 | ATCC 32045 | - | EC50 | - | 37.9 µg/mL
CC1=C2[C@H]3OC(=O)[C@@H](C)[C@@H]3[C@@H](O)C[C@@]2(C)C=CC1=O | - | - | MIC50 | - | 0.21–16 µg/mL
CC12C(=O)c3cccc(O)c3C(=O)C1CC1=C2C(=O)c2c(O)cccc2C1=O | - | - | MFC | - | 100 µg/mL
CCN1C2=NC[C@@H](C3CCCCC3)N2C[C@@H]1Cc1ccccc1 | ATCC 32045 | - | EC50 | - | 34.5 µg/mL
CCCCCCCCN[C@H]1CCc2cc(OC)c(OC)cc2C1 | - | - | MIC80 | - | 4 µg/mL
C=C(Cl)/C=C/[C@H](O)CC(=C)C[C@H]1OC2[C@@H](O)[C@]3(O)C[C@@H](O)[C@H](C)[C@H](CCC/C=C\[C@@H]4C[C@@H](O)C[C@]5(C[C@H](OC)CC(CC(=O)[C@@H](C)[C@H](OC(C)=O)[C@@H](C)C(=C)C[C@@H]6C[C@@](C)(O)C[C@]7(C[C@H](OC(C)=O)CC(CC(=O)O[C@@H]([C@@H]1O)[C@H]2C)O7)O6)O5)O4)O3 | ATCC90112 | - | MFC | - | 3.12 µg/mL
CCCCCCCCN[C@@H]1CCc2cc(OC)c(OC)cc2C1 | - | - | MIC80 | - | 16 µg/mL
CCN1C2=NC[C@H](Cc3ccccc3)N2C[C@@H]1C1CCCCC1 | ATCC 32045 | - | EC50 | - | 64.6 µg/mL

For reference, 5 entries again:

compound | strain | method | measure | dose | value
CCCCCCCCCN1CCc2cc(O)c(O)cc2C1 | - | - | MIC80 | - | 16 µg/mL
COC(=O)c1cc(O)c(O)c(O)c1 | ATCC 208821 | broth dilution | MLC | - | >200 µg/mL
CC/C=C/C(CC)CCC[C@@]1(CC)C[C@H](CC)[C@H](CC(=O)O)OO1 | - | - | EC50 | - | 2.5 µg/mL
CCN1C2=NC[C@@H](C3CCCCC3)N2C[C@@H]1Cc1ccccc1 | ATCC 32045 | - | EC50 | - | 34.5 µg/mL
O[C@](Cn1cncn1)(Cn1cnc(/C=C/c2ccc(OCC(F)(F)C(F)F)cc2)n1)c1ccc(F)cc1F | 10 strains | - | Mean MIC80 | - | 0.0075 µg/mL

MIC50, MIC90 and the like: level of inhibition, or share of isolates inhibited. Percent inhibition refers to the dose given; in toxicity tests it is the harm to the cells. a–b is a range or a potency band. Lines come from different laboratories, so protocols vary. ECn: concentration that inhibits the pathogen or its effect by n%.